A mixed list of measured activities; the numbers were collected in NIAID ChemDB.

All rows: toxicity to cultured cells; cell line: HeLa; read by: MTT; measure: CC50

Lines come from different laboratories, so protocols vary.

| SMILES | value |
|---|---|
| CCOC(=O)/C(=C\c1cc(-c2ccccc2)cnc1Cl)C(=O)c1ccccc1 | 61 µM |
| COc1cc2c(cc1OC)C1=C(c3ccc(OC)c(OS(=O)(=O)O)c3)C3c4cc(OC)c(OS(=O)(=O)O)cc4OC(=O)C3N1C=C2 | 29 µM |
| COc1ccccc1NC(=O)c1ccccc1Oc1ccc(OCO)c(OCO)c1 | >100 µM |
| N#CC(N)=NCCN=C(N)NC(N)=[NH+]CCCCCCCC[NH+]=C(N)NC(N)=NCCN.[Cl-].[Cl-] | 2830 µM |
| CCOC(=O)[C@@]1(C)CC[C@]2(C)CC[C@]3(C)C(=CC(=O)[C@@H]4[C@@]5(C)CC/C(=N\OCC6(C)COC6)C(C)(C)[C@@H]5CC[C@]43C)[C@@H]2C1 | 38.35 µM |
| NNC(=O)c1ccncc1 | 8.5 µg/mL |
| COc1ccc(C2=C3c4cc(OC)c(OC)cc4C=CN3C3C(=O)Oc4cc(O)c(OC)cc4C23)cc1O | 5.1 µM |
| C=CCSc1n[nH]c(-c2ccc([N+](=O)[O-])c(C(F)(F)F)c2)n1 | 23.22 µg/mL |
| CCOC(=O)[C@@]1(C)CC[C@]2(C)CC[C@]3(C)C(=CC(=O)[C@@H]4[C@@]5(C)CC/C(=N\OCc6ccccc6F)C(C)(C)[C@@H]5CC[C@]43C)[C@@H]2C1 | 34.96 µM |
| CCCCCCCCCc1ccc(OCCOCCOCCOCCOCCOCCOCCOCCOCCO)cc1 | 113 µM |
| CC#C[C@]1(O)CC[C@H]2[C@@H]3CCC4=CC(=O)CCC4=C3[C@@H](c3ccc(N(C)C)cc3)C[C@@]21C | >50 µM |
| O=C(/C=C/c1cc(-c2ccccc2)cnc1Cl)c1ccccc1 | 152 µM |
| O=C1c2ccccc2C(=O)c2c1ccc1[nH]c(CNCCCCN3[C@@H](CO)[C@@H](O)[C@H](O)[C@@H]3CO)nc21 | 124 µM |
| N#CC(N)=NCCCCCC[NH+]=C(N)NC(N)=NCCCCCCN=C(N)NC(N)=[NH+]CCCCCCN.[Cl-].[Cl-] | 110 µM |
| Cc1cnc(Cl)c(/C=C/C(=O)c2ccccc2)c1 | 38 µM |
| CCOC(=O)[C@@]1(C)CC[C@]2(C)CC[C@]3(C)C(=CC(=O)[C@@H]4[C@@]5(C)CC/C(=N\OCc6cc(F)cc(F)c6)C(C)(C)[C@@H]5CC[C@]43C)[C@@H]2C1 | 12.65 µM |
| CC(=O)OC(C)(C)CCC(=O)[C@](C)(O)[C@H]1[C@H](O)C[C@@]2(C)[C@@H]3CC=C4[C@@H](C[C@H](O)[C@@H](O)C4(C)C)[C@]3(C)C(=O)C[C@]12C | 8.7 µM |
| CCCCCCCCCCCCCCCCO[C@H]1N([C@H]2C[C@H](N=[N+]=[N-])[C@@H](CO)O2)C(=O)NC(=O)[C@]1(C)Br | >500 µg/mL |
| COC(=O)c1ccc(/C=C/C(=O)c2ccccc2)c(Cl)n1 | 104 µM |
| CCOC(=O)[C@@]1(C)CC[C@]2(C)CC[C@]3(C)C(=CC(=O)[C@@H]4[C@@]5(C)CC/C(=N\OCc6ccsc6)C(C)(C)[C@@H]5CC[C@]43C)[C@@H]2C1 | 24.85 µM |
| COc1ccc(C(O)c2ccccc2C(=O)Nc2ccccc2OC)cc1 | >100 µM |
| Cc1ccc2c(c1)CSSC2 | 226 µM |
| CCOC(=O)[C@@]1(C)CC[C@]2(C)CC[C@]3(C)C(=CC(=O)[C@@H]4[C@@]5(C)CC/C(=N\OCc6cc(Br)cc(Br)c6)C(C)(C)[C@@H]5CC[C@]43C)[C@@H]2C1 | 18.81 µM |
| c1ccc2c(c1)CSSC2 | 271 µM |
| O=C1c2ccccc2C(=O)c2c1ccc1[nH]c([C@H]3NC[C@@H](O)[C@H]3O)nc21 | 20.34 µM |
| COc1ccccc1NC(=O)c1ccccc1C(O)c1cccc([N+](=O)[O-])c1 | >100 µM |
| CCOC(=O)[C@@]1(C)CC[C@]2(C)CC[C@]3(C)C(=CC(=O)[C@@H]4[C@@]5(C)CC/C(=N\OCc6cccc(C)c6)C(C)(C)[C@@H]5CC[C@]43C)[C@@H]2C1 | 42.19 µM |
| Fc1ccc(-c2n[nH]c(=S)s2)cc1 | 7.15 µg/mL |
| CCOC(=O)c1ccc(CO/N=C2\CC[C@]3(C)[C@H]4C(=O)C=C5[C@@H]6C[C@@](C)(C(=O)OCC)CC[C@]6(C)CC[C@@]5(C)[C@]4(C)CC[C@H]3C2(C)C)o1 | 67.36 µM |
| O=[N+]([O-])c1ccc(-c2nc(=S)[nH][nH]2)cc1 | 40.29 µg/mL |
| COS(=O)(=O)O.N=C(N)c1ccc2cc(OC(=O)c3ccc(N=C(N)N)cc3)ccc2c1 | 36 µg/mL |
| CCOC(=O)[C@@]1(C)CC[C@]2(C)CC[C@]3(C)C(=CC(=O)[C@@H]4[C@@]5(C)CC/C(=N\OCc6ccc(Cl)c(Cl)c6)C(C)(C)[C@@H]5CC[C@]43C)[C@@H]2C1 | 43.65 µM |
| Fc1ccc(-c2nc(=S)[nH][nH]2)cc1 | 33.82 µg/mL |
| C[C@H](CCC=C(CO)CO)[C@H]1CC[C@@]2(C)C3CC=C4[C@@H](CC[C@H](O)C4(C)C)[C@]3(C)C(=O)C[C@]12C | >50 µM |
| O=C1c2ccccc2C(=O)c2c1ccc1[nH]c(CNCCN3[C@@H](CO)[C@@H](O)[C@H](O)[C@@H]3CO)nc21 | 44.23 µM |
| N#CC(N)=NCCCCN=C(N)NC(N)=[NH+]CCCCCC[NH+]=C(N)NC(N)=NCCN.[Cl-].[Cl-] | 1414 µM |
| CN(C)C(=O)COC(=O)Cc1ccc(OC(=O)c2ccc(N=C(N)N)cc2)cc1.COS(=O)(=O)O | >500 µg/mL |
| O=C1c2ccccc2C(=O)c2c1ccc1[nH]c(CNCCCCCCN3[C@@H](CO)[C@@H](O)[C@H](O)[C@@H]3CO)nc21 | 191.8 µM |
| Fc1cccc2c1CSSC2 | 284 µM |
| Oc1ccc(-c2nc(SCC3CC3)n[nH]2)cc1 | 31.17 µg/mL |

Repeating the final 2 entries:

SMILES	value
Fc1cccc2c1CSSC2	284 µM
Oc1ccc(-c2nc(SCC3CC3)n[nH]2)cc1	31.17 µg/mL

CCn: concentration that lowers growth or viability of the cells by n%.